Key:
[1] = test system: AptaFluor detection reagents; test: Tolerance of substrates and reagents in the AptaFluor SAH assay; details: 10 nM SAH
[2] = test system: AptaFluor detection reagents; test: Interference dose response assay in mock reactions lacking nsp14; details: 90 nM SAM and 10 nM SAH, up to 100 μM

| Molecule | Tolerance (maximum concentration with < 10% change in assay signal) [1] | interference with AptaFluor signal in dose response mode [2] |
| --- | --- | --- |
| [Cl][Mn][Cl] [MnCl2] | 2 mM | – |
| CN(C)C=O [DMF] | 0.78% | – |
| COc1ncc(-c2ccc3c(Nc4cc(Oc5cc(F)cc(F)c5)cc(C(=O)O)c4)c(S(=O)(=O)NC4CC4)cnc3c2)c(OC)n1 [GSK-2837808A] | – | dose dependent decrease in signal |
| NP40 | 0.60% | – |
| OCC(O)CO [Glycerol] | 12.50% | – |
| C[S+](C)[O-] [DMSO] | 3% | – |
| O=C1C(Cl)=C(NCCN2CCOCC2)C(=O)c2ncccc21 [NSC-663284] | – | no effect |
| O[C@@H](CS)[C@@H](O)CS [DTT] | 1% | – |
| [Ca+2].[Cl-].[Cl-] [CaCl2] | 10 mM | – |
| [Cl-].[Cl-].[Mg+2] [MgCl2] | 250 mM | – |
| CC1(C)C(=O)N=C2C1=C(O)C(=O)c1ccccc12 [BVT-948] | – | no effect |

— article PMC11188199, “Development and validation of a generic methyltransferase enzymatic assay based on an SAH riboswitch” (SLAS discovery : advancing life sciences R & D, 2024)
